A mixed list of measured activities; the numbers were collected in NIAID ChemDB.

All rows: host cell toxicity; cells: CEM; measure: CC50

CCn: concentration that lowers growth or viability of the cells by n%.

compound	read by	result
O=C(NN1C(=O)C(Cl)C1c1ccc(O)cc1)c1ccccc1O		10.3 µM
CCCNC(=O)c1cc(C)ccc1NC(=O)C12CC3CC(CC(C3)C1)C2		>200 µM
COC(=O)[C@H](C)NP(=O)(OC[C@@H]1CC[C@H](n2ccc(N)nc2=O)O1)Oc1ccccc1		114 µM
CN(C)C(=O)c1cnnn1[C@@H]1O[C@H](CO[Si](C)(C)C(C)(C)C)C2(OS(=O)(=O)C=C2N)[C@H]1O[Si](C)(C)C(C)(C)C		>0.32 µM
Nc1ncnc2c1ncn2[C@H]1CC[C@@H](CO)O1		>250 µM
Fc1ccc(Cl)c(C2OCc3nc4ccccc4n32)c1		31 µM
O=c1oc(C23CC4CC(CC(C4)C2)C3)nc2ccc(Br)cc12		>200 µM
CC(C)(C)[Si](C)(C)OC[C@H]1O[C@@H](n2nncc2CBr)[C@H](O[Si](C)(C)C(C)(C)C)C12OS(=O)(=O)C=C2N		>1.3 µM
CC1=NN(C(=O)c2ccc(Cl)cc2)C(=O)/C1=C/c1ccc(O)cc1		>15 µM
Cc1cn([C@@H]2O[C@H](CO[Si](C)(C)C(C)(C)C)C3(OS(=O)(=O)C=C3N)[C@H]2O[Si](C)(C)C(C)(C)C)c(=O)n(CC(=O)N[C@@H](CC(=O)O)C(=O)O)c1=O		>250 µM
Nc1ncnc2c1ncn2CCOCP(=O)(O)O		64 µM
COc1ccc(/C=C2/C(=O)N(C(=O)c3ccccc3O)N=C2C)cc1		0.053 µM
Cc1cn([C@H]2C=C[C@@H](COP(=O)(O)O)O2)c(=O)[nH]c1=O		>20 µM
CC#C[C@@]1(CO)C=C[C@H](n2cc(C)c(=O)[nH]c2=O)O1		>100 µM
O=C(NNC(=O)c1ccccc1O)c1ccccc1O		0.1 µM
Cc1cn([C@H]2C[C@H](N=[N+]=[N-])[C@@H](COP(=O)(O)O)O2)c(=O)[nH]c1=O		>20 µM
Cc1cn([C@@H]2O[C@H](CO[Si](C)(C)C(C)(C)C)[C@@]3(NS(=O)(=O)C=C3N)[C@H]2O[Si](C)(C)C(C)(C)C)c(=O)n(C)c1=O		5.8 µM
Nc1ccn([C@H]2CC[C@@H](CO)O2)c(=O)n1		3.5 µM
COC(=O)c1cn([C@@H]2O[C@H](CO[Si](C)(C)C(C)(C)C)C3(OS(=O)(=O)C=C3N)[C@H]2O[Si](C)(C)C(C)(C)C)nn1		>0.18 µM
COCCCCCCCCCCCC(=O)OP(=O)(O)OP(=O)(O)OP(=O)(O)OC[C@H]1O[C@@H](n2cc(C)c(=O)[nH]c2=O)C[C@@H]1N=[N+]=[N-]		>50 µM
Nc1nc2c(ncn2[C@H]2CC[C@@H](CO)O2)c(=O)o1	MTT	>500 µg/mL
Cc1cn([C@@H]2O[C@H](CO[Si](C)(C)C(C)(C)C)[C@@]3(OS(=O)(=O)C=C3N)[C@H]2O[Si](C)(C)C(C)(C)C)c(=O)n(CC(=O)N[C@@H](CCC(=O)O)C(=O)O)c1=O		>250 µM
O=C(N/N=C/c1cccs1)c1cc(Cl)ccc1NC(=O)C12CC3CC(CC(C3)C1)C2		>200 µM
CCn1c(=O)c(C)cn([C@@H]2O[C@H](CO[Si](C)(C)C(C)(C)C)[C@@]3(NS(=O)(=O)C=C3N)[C@H]2O[Si](C)(C)C(C)(C)C)c1=O		4.9 µM
Nc1nc2c(ncn2[C@H]2C[C@H](O)[C@@H](CO)O2)c(=O)o1	MTT	>500 µg/mL
Nc1nc2c(ncn2[C@@H]2O[C@H](CO)[C@@H](O)[C@H]2O)c(=O)o1		440 µg/mL
C=C(COCP(=O)(O)O)Cn1cnc2c(=O)[nH]c(N)nc21		≥250 µM
COc1cc(/C=C2/C(=O)N(C(=O)c3ccccc3O)N=C2C)cc(OC)c1OC		0.24 µM
CCOC(=O)c1nnn([C@@H]2O[C@H](CO[Si](C)(C)C(C)(C)C)C3(OS(=O)(=O)C=C3N)[C@H]2O[Si](C)(C)C(C)(C)C)c1C(=O)OCC		>1.6 µM
Cc1cn([C@H]2C=C[C@@](C#N)(CO)O2)c(=O)[nH]c1=O		100 µM
Nc1nc2c(ncn2[C@@H]2C[C@H](COP(=O)(O)O)[C@@H](O)[C@H]2O)c(=O)o1		>500 µg/mL
C[C@]1(CCP(=O)(O)O)CO[C@@H](n2cnc3c(=O)[nH]c(N)nc32)C1		>100 µM
Nc1ccn([C@@H]2CS[C@H](CO)O2)c(=O)n1		>200 µM
CCOC(=O)c1cnnn1[C@@H]1O[C@H](CO[Si](C)(C)C(C)(C)C)C2(OS(=O)(=O)C=C2N)[C@H]1O[Si](C)(C)C(C)(C)C		>1.3 µM
Cc1cn([C@@H]2O[C@H](CO[Si](C)(C)C(C)(C)C)[C@@]3(NS(=O)(=O)C=C3N)[C@H]2O[Si](C)(C)C(C)(C)C)c(=O)[nH]c1=O		19.1 µM
COCc1cnnn1[C@@H]1O[C@H](CO[Si](C)(C)C(C)(C)C)C2(OS(=O)(=O)C=C2N)[C@H]1O[Si](C)(C)C(C)(C)C		>0.9 µM
Nc1nc2c(ncn2[C@@H]2O[C@H](CO)[C@@H](O)[C@H]2O)c(=O)o1	MTT	440 µg/mL
Nc1nc2c(ncn2[C@@H]2O[C@H](COP(=O)(O)O)[C@@H](O)[C@H]2O)c(=O)o1		>500 µg/mL
Cc1cn([C@@H]2O[C@H](CO[Si](C)(C)C(C)(C)C)C3(OS(=O)(=O)C=C3N)[C@H]2O[Si](C)(C)C(C)(C)C)nn1		>1.4 µM
Cc1cn([C@H]2C[C@H](N=[N+]=[N-])[C@@H](COP(=O)(O)OP(=O)(O)O)O2)c(=O)[nH]c1=O		>20 µM
Cc1cn([C@H]2C[C@H](N=[N+]=[N-])[C@@H](CO)O2)c(=O)[nH]c1=O		>500 µg/mL
Cc1cn([C@@H]2O[C@H](CO[Si](C)(C)C(C)(C)C)C3(OS(=O)(=O)C=C3N)[C@H]2O[Si](C)(C)C(C)(C)C)c(=O)n(CC(=O)N[C@H](C(=O)OCc2ccccc2)C(C)C)c1=O		≥250 µM
Cc1cn([C@@H]2O[C@H](CO[Si](C)(C)C(C)(C)C)[C@]3(C(N)=CS(=O)(=O)N3C)[C@H]2O[Si](C)(C)C(C)(C)C)c(=O)n(C(=O)OC(C)(C)C)c1=O		20.6 µM

The first 6 rows once more:

compound | read by | result
O=C(NN1C(=O)C(Cl)C1c1ccc(O)cc1)c1ccccc1O |  | 10.3 µM
CCCNC(=O)c1cc(C)ccc1NC(=O)C12CC3CC(CC(C3)C1)C2 |  | >200 µM
COC(=O)[C@H](C)NP(=O)(OC[C@@H]1CC[C@H](n2ccc(N)nc2=O)O1)Oc1ccccc1 |  | 114 µM
CN(C)C(=O)c1cnnn1[C@@H]1O[C@H](CO[Si](C)(C)C(C)(C)C)C2(OS(=O)(=O)C=C2N)[C@H]1O[Si](C)(C)C(C)(C)C |  | >0.32 µM
Nc1ncnc2c1ncn2[C@H]1CC[C@@H](CO)O1 |  | >250 µM
Fc1ccc(Cl)c(C2OCc3nc4ccccc4n32)c1 |  | 31 µM

Neighbouring rows are from separate reports. Blank or dashed fields: not listed here.